Data reported in patent US8709743B2, “Inhibitors of bacterial nitric oxide synthase, and related screening methods” (Massachusetts Institute of Technology, priority 2007, dated 2014).

Test: Fluorescence quantum yield
Type: physicochemical

Row | SMILES | quantum yield (Φ)
1 | Cc1ccc2cccc(NCc3c(O)ccc4c(-c5ccccc5C(=O)O)c5cc(Cl)c(=O)cc-5oc34)c2n1 [FL5, 2-{2-chloro-6-hydroxy-5-[(2-methyl-quinolin-8-ylamino)-methyl]-3-oxo-3H-xanthen-9-yl}-benzoic acid] | 0.077±0.002
2 | Cc1ccc2cccc(N(Cc3c(O)ccc4c(-c5ccccc5C(=O)O)c5cc(Cl)c(=O)cc-5oc34)N=O)c2n1 [FL5-NO, 2-{2-chloro-6-hydroxy-5-[((2-methylquinolin-8-yl)(nitroso)amino)-methyl]-3-oxo-3H-xanthen-9-yl}-benzoic acid] | 0.58±0.02
